Tested on: V. cholerae
Test: Cholera toxin production by V. cholerae

SMILES | reduction in cholera toxin production
CCCC(Br)C1=CC(=C(Br)Br)N(c2ccccc2)C1=O (centres unmarked) | 40% reduction in cholera toxin production by V. cholerae
O=C1C=C(Br)/C(=C/Nc2ccccc2)O1 | 40% reduction in cholera toxin production by V. cholerae
